Results of unrelated studies side by side (data: NIAID ChemDB).

All rows: whole-cell or culture tests; agent: Mycobacterium tuberculosis

MIC bound comes from a single tested concentration.

compound	changes	measure	dose	strain	method	conditions	result
CNc1nc(C(N)=O)c(N)s1	-	MIC bound	-	H37Rv	BACTEC	-	>12.5 µg/mL
NCC[C@H](O)C(=O)N[C@@H]1C[C@H](N)[C@@H](O[C@H]2O[C@H](CN)[C@@H](O)[C@H](O)[C@H]2O)[C@H](O)[C@H]1O[C@H]1O[C@H](CO)[C@@H](O)[C@H](N)[C@H]1O	-	MIC	-	TN758 (P)	-	-	8 µg/mL
c1ccc(-c2cn3nc(C4CCCCC4)sc3n2)cc1	-	inhibition	6.25 µg/mL	H37Rv	BACTEC	-	<90%
O=C1NC(NNC(=O)c2ccncc2)=N/C1=C\c1ccccc1Cl	-	MIC	-	Ciprofloxacin-resistant	-	-	≤1.56 µg/mL
Brc1ccc(-c2nc3sc(-c4cccs4)nn3c2CN2CCCC2)cc1	-	inhibition	6.25 µg/mL	H37Rv	BACTEC	-	<90%
O=C(Cc1cccs1)N/N=C/c1cccc(O)c1O	-	MIC	-	H37Rv (ATCC 27294)	resazurin	-	>100 µg/mL
CN(C)N=Nc1ccc(C(=O)N/N=C/c2ccc([N+](=O)[O-])cc2)cc1	-	MIC bound	-	H37Rv	BACTEC	-	>12.5 µg/mL
c1ccc(-c2nc3sc(C4CCCCC4)nn3c2CN2CCCCC2)cc1	-	inhibition	6.25 µg/mL	H37Rv	BACTEC	-	<90%
CC1(C)S[C@@H]2[C@H](NC(=O)C(C(=O)O)c3ccccc3)C(=O)N2[C@H]1C(=O)O	-	inhibition	20 µg/mL	Gordon	colony count	21 d	94%
O=C1NC(NNC(=O)c2ccncc2)=N/C1=C\c1cccc(Cl)c1	-	EC99	-	Erdman	colony count	inside macrophages	>50 µg/mL
COC(=O)c1ccc2oc3c(C(=O)OC)cccc3c(=O)c2c1	-	inhibition	16 µg/mL	H37Rv	-	-	inactive
C=CCOc1cc2oc3cc(O)c(CCC(C)C)c(O)c3c(=O)c2c(CCC(C)C)c1OC	-	MIC	-	M21	resazurin	-	3.12 µg/mL
O=C(c1ccncc1)N1C(c2ccccc2)=C(c2ccccc2)Sc2nnc(COc3cccc4ccccc34)n21	-	MIC	-	-	-	-	100 µg/mL
CCc1ccc([C@H]2C[C@@H](C(F)(F)F)n3ncc(C(=O)NCc4ccc(OC)cc4)c3N2)cc1	MmpL3: Ile292Ser	fold resistance	-	H37Rv	fluorescence	-	1
CN(C)c1cccc(F)c1C(=O)NC(=O)Nc1ccc(Cl)cc1	-	MIC bound	-	H37Rv	BACTEC	-	>12.5 µg/mL
CC(C)C1C=C2C(C(=O)C1=O)[C@@]1(C)CCCC(C)(C)[C@@H]1C[C@@H]2O	-	MIC	-	H37Rv	-	-	<12.5 µg/mL
NC(N)=N/N=C/c1ccc([N+](=O)[O-])o1	-	MIC bound	-	H37Rv	resazurin	-	>6.25 µg/mL
Brc1ccc(-c2nc3sc(-c4cccs4)nn3c2CN2CCCCC2)cc1	-	inhibition	6.25 µg/mL	H37Rv	BACTEC	-	<90%
CC1CN(C(=O)/C=C/C(=O)OC2CCCCC2)CCN1C(=O)/C=C/C(=O)OC1CCCCC1	-	MIC	-	PZA-R	-	-	12.5 µg/mL
O=C1NC(Nc2cccc(Cl)c2)=N/C1=C\c1ccccc1Cl	-	inhibition	12.5 µg/mL	H37Rv	-	-	91%
CCC(C)C(NC(=O)OCc1ccccc1)C(=O)NC(CO)C(=O)O	-	MIC bound	-	H37Rv	BACTEC	-	>12.8 µg/mL
O=C(O)c1cccc2c(=O)c3cc([N+](=O)[O-])ccc3oc12	-	inhibition	32 µg/mL	H37Rv	-	-	inactive
OCc1c(-c2ccccc2)nc2sc(-c3ccco3)nn12	-	inhibition	6.25 µg/mL	H37Rv	BACTEC	-	<90%
O=C(Cc1cccs1)N/N=C/c1ccc(O)cc1	-	MIC	-	H37Rv (ATCC 27294)	resazurin	-	404.7 µM
CN(C)CCNc1ccc([N+](=O)[O-])c2sc3ccccc3c(=O)c12	-	MIC	-	H37Rv	BACTEC	-	6.25 µg/mL
c1ccc(-c2nc3sc(-c4ccco4)nn3c2CN2CCCC2)cc1	-	inhibition	6.25 µg/mL	H37Rv	BACTEC	-	<90%
CC(=O)c1c(OCc2ccccc2)cc2oc3cc(OCc4ccccc4)c(CCC(C)C)c(O)c3c(=O)c2c1CCC(C)C	-	MIC	-	H37Ra	resazurin	-	12.5 µg/mL
O=C(O)CCCc1nc2c(n1Cc1ccccc1)C(=O)c1ccccc1C2=O	-	MIC bound	-	H37Rv	BACTEC	-	>12.5 µg/mL
O=C1CSc2nnc(COc3ccccc3[N+](=O)[O-])n2N1C(=O)c1ccncc1	-	MIC	-	-	-	-	100 µg/mL
CC(=O)Oc1c(C/C=C(\C)CC/C=C(\C)CCC=C(C)C)c(=O)oc2ccccc12	-	inhibition	12.5 µg/mL	H37Rv	-	-	0%
COc1c(O)cc2oc3cc(O)c(CCC(C)C)c(O)c3c(=O)c2c1CCC(C)C	MDR	MIC	-	M21	resazurin	-	3.12 µg/mL
COC(=O)c1ccc2c(=O)c3cc([N+](=O)[O-])ccc3oc2c1C(=O)OC	-	inhibition	16 µg/mL	H37Rv	-	-	inactive
NNC(=O)c1ccncc1	-	MIC	-	H37Rv	-	-	0.125 µg/mL
COC(=O)c1c([N+](=O)[O-])ccc2oc3ccc([N+](=O)[O-])cc3c(=O)c12	-	inhibition	16 µg/mL	H37Rv	-	-	inactive
Cc1onc(-c2ccccc2Cl)c1C(=O)N[C@@H]1C(=O)N2[C@@H]1SC(C)(C)[C@@H]2C(=O)O	-	inhibition	25 µg/mL	Gordon	colony count	21 d	100%
CN[C@H](CC(C)C)C(=O)N[C@H]1C(=O)N[C@@H](CC(N)=O)C(=O)N[C@H]2C(=O)N[C@H]3C(=O)N[C@H](C(=O)N[C@H](C(=O)O)c4cc(O)cc(O)c4-c4cc3ccc4O)[C@H](O)c3ccc(c(Cl)c3)Oc3cc2cc(c3O[C@@H]2O[C@H](CO)[C@@H](O)[C@H](O)[C@H]2O[C@H]2C[C@](C)(N)[C@H](O)[C@H](C)O2)Oc2ccc(cc2Cl)[C@H]1O	-	MIC	-	H37Rv	broth dilution	-	100–200 µg/mL
OC[C@H]1O[C@H](CO)[C@@H](O)[C@@H]1O	-	inhibition	12.5 µg/mL	H37Rv	BACTEC	-	-10%
CN[C@@H]1[C@H](O[C@H]2[C@H](O[C@H]3[C@H](O)[C@@H](O)[C@H](N=C(N)N)[C@@H](O)[C@@H]3N=C(N)N)O[C@@H](C)[C@]2(O)C=O)O[C@@H](CO)[C@H](O)[C@H]1O	-	MIC	-	38396	-	-	<2 µg/mL
COC(=O)c1cccc2oc3ccc([N+](=O)[O-])cc3c(=O)c12	-	inhibition	4 µg/mL	H37Rv	-	-	inactive
COC(=O)c1c(C(=O)OC)c2ccc3c4ncccc4ccc3n2c1C(=O)c1ccc(Cl)cc1	-	EC50	-	H37Rv	reporter gene / fluorescence	-	>50 µM
Fc1ccc(NC(=S)Nc2ncc(C3CCC3)o2)cc1	-	MIC	-	H37Rv	agar	-	0.68 µM
CCCCCCCCCC(=O)N[C@H]1[C@H](Oc2c3cc4cc2Oc2ccc(cc2Cl)[C@@H](O[C@@H]2O[C@H](CO)[C@@H](O)[C@H](O)[C@H]2NC(C)=O)[C@@H]2NC(=O)[C@H](NC(=O)[C@@H]4NC(=O)[C@H]4NC(=O)[C@@H](Cc5ccc(c(Cl)c5)O3)NC(=O)[C@H](N)c3ccc(O)c(c3)Oc3cc(O)cc4c3)c3ccc(O)c(c3)-c3c(O[C@H]4O[C@H](CO)[C@@H](O)[C@H](O)[C@@H]4O)cc(O)cc3[C@H](C(=O)O)NC2=O)O[C@H](CO)[C@@H](O)[C@@H]1O	-	MIC	-	L1904	-	-	>64 µg/mL
CC1(CCC2C=CCC2)CCCNC1=S	-	MIC bound	-	H37Rv	BACTEC	-	>12.5 µg/mL
CCOC(=O)c1cc(C(=O)c2ccc(Br)cc2)n2c1ccc1c3ncccc3ccc12	-	MIC	-	H37Rv	reporter gene / fluorescence	-	>100 µM
Cc1cc([N+](=O)[O-])cc2c(=O)c3cc([N+](=O)[O-])ccc3oc12	-	inhibition	4 µg/mL	H37Rv	-	-	inactive
CO[C@H]1/C=C/O[C@@]2(C)Oc3c(C)c(O)c4c(O)c(c(/C=N/N5CCN(C)CC5)c(O)c4c3C2=O)NC(=O)/C(C)=C\C=C\[C@H](C)[C@H](O)[C@@H](C)[C@@H](O)[C@@H](C)[C@H](OC(C)=O)[C@@H]1C	-	MIC	-	3897	-	-	≥2 µg/mL
CC1CCCCN1.CC1CCCCN1C(=S)S	-	inhibition	12.5 µg/mL	H37Rv	BACTEC	-	99%
N#Cc1cccc(/C=N/NC(=O)Cc2cccs2)c1	-	MIC	-	H37Rv (ATCC 27294)	resazurin	-	>100 µg/mL
CCCOc1cc2oc3cc(O)c(CCC(C)C)c(O)c3c(=O)c2c(CCC(C)C)c1C(C)=O	-	MIC	-	H37Ra	resazurin	-	0.78 µg/mL
O=Nc1c(-c2ccccc2)[nH]oc1=O	-	MIC	-	H37Rv	resazurin	-	6.25 µg/mL
O=C1NC(NNC(=O)c2ccncc2)=N/C1=C\c1ccc(Cl)cc1	-	MIC	-	ATCC 35838 (rifampin-resistant)	-	-	6.25 µg/mL
Cc1cccc(NC(=S)Nc2ncc(C3CCC3)o2)n1	-	MIC	-	H37Rv	agar	-	1.35 µM
NC[C@H]1O[C@H](O[C@H]2[C@H](O)[C@@H](O[C@H]3O[C@H](CO)[C@@H](O)[C@H](N)[C@H]3O)[C@H](N)C[C@@H]2N)[C@H](O)[C@@H](O)[C@@H]1O	-	MIC	-	H37Ra	resazurin	-	2.5 µg/mL
O=C1CSc2nnc(COc3ccccc3)n2N1C(=O)c1ccncc1	-	MIC	-	-	-	-	100 µg/mL
Clc1nc2nc[nH]c2nc1Cl	-	MIC bound	-	H37Rv	BACTEC	-	>12.5 µg/mL
CC[C@@H](CO)NCCN[C@@H](CC)CO	MDR	MIC	-	M21	resazurin	-	>8 µg/mL
O=C(Cc1cccs1)N/N=C/c1cc(O)c(O)c(O)c1	-	MIC	-	H37Rv (ATCC 27294)	resazurin	-	>100 µg/mL
CC1(C)C(=O)N(Cl)C(=O)N1Cl	-	inhibition	12.5 µg/mL	H37Rv	BACTEC	-	0%
COc1ccc(/C=N/NC(=O)Cc2cccs2)cc1	-	MIC	-	H37Rv (ATCC 27294)	resazurin	-	>100 µg/mL
CCOC(=O)c1cc(C(=O)c2ccc(OC)cc2)n2c1ccc1c3ncccc3ccc12	-	EC90	-	H37Rv	reporter gene / fluorescence	-	>200 µM
Brc1ccc(-c2cn3nc(-c4cccs4)sc3n2)cc1	-	inhibition	6.25 µg/mL	H37Rv	BACTEC	-	<90%
CCOC(=O)/C=C(\C)Nc1ccc(N/C(C)=C/C(=O)OCC)c2c1Oc1ccccc1O2	-	inhibition	6.25 µg/mL	H37Rv	resazurin	-	9%
COC(=O)c1c(C(=O)OC)c2ccc3c4ncccc4ccc3n2c1C(=O)c1ccc(C)cc1	-	EC50	-	H37Rv	reporter gene / fluorescence	-	>200 µM
O=C(c1ccncc1)N1C(c2ccccc2)=C(c2ccccc2)Sc2nnc(COc3ccccc3)n21	-	MIC	-	-	-	-	10 µg/mL
CCCOc1cc2oc3cc(O)c(CCC(C)C)c(O)c3c(=O)c2c(CCC(C)C)c1OC	MDR	MIC	-	M-3	resazurin	-	3.12 µg/mL
Brc1ccc(-c2cn3nc(-c4ccco4)sc3n2)cc1	-	inhibition	6.25 µg/mL	H37Rv	BACTEC	-	<90%
COC(=O)c1c(C(=O)OC)c2ccc3c4ncccc4ccc3n2c1C(=O)c1ccc(Br)cc1	-	EC50	-	H37Rv	reporter gene / fluorescence	-	>20 µM
CC(=O)N=C1N(/C=C2\C(=O)Oc3ccccc3C2=O)C(=O)/C(=C/c2ccc(NC(C)=O)cc2)N1C	-	MIC bound	-	H37Rv	BACTEC	-	>12.5 µg/mL
COc1cccc(/C=N/NC(=O)Cc2cccs2)c1	-	MIC	-	H37Rv (ATCC 27294)	resazurin	-	>100 µg/mL
S=C(Nc1ccc(Cl)cc1)Nc1ncc(C2CCC2)o1	-	MIC	-	MDR clinical isolate	agar	-	1.23 µM
O=C(Cc1cccs1)N/N=C/c1ccccn1	-	MIC	-	H37Rv (ATCC 27294)	resazurin	-	409.8 µM
Cc1ccsc1C(=S)Nc1ccc(Cl)c(/C=N/OC(C)(C)C)c1	-	inhibition	12.5 µg/mL	H37Rv	BACTEC	-	99%
CCOC(=O)c1cc(C(=O)c2ccc(Cl)cc2)n2c1ccc1c3ncccc3ccc12	-	EC90	-	H37Rv	reporter gene / fluorescence	-	>100 µM
Nc1nc(N)nc(-c2ccc([N+](=O)[O-])o2)n1	-	MIC bound	-	H37Rv	BACTEC	-	≤12.5 µg/mL
O=C1CSC(c2c(-c3ccccc3)nc3sc(-c4cccs4)nn23)N1c1ccccc1	-	inhibition	6.25 µg/mL	H37Rv	BACTEC	-	<90%
N=C1OC(C(Cl)(Cl)Cl)N(c2cccc(F)c2)C1=O	-	inhibition	12.8 µg/mL	H37Rv	BACTEC	-	6%
O=c1cccc(NC(=S)Nc2ncc(C3CCC3)o2)[nH]1	-	MIC	-	H37Rv	agar	-	10.78 µM
CC1=[N+]([O-])c2ccccc2C(=O)C1=O	-	MIC bound	-	H37Rv	resazurin	-	>6.25 µg/mL
Cc1cc(C)c2oc3ccccc3c(=O)c2c1	-	inhibition	32 µg/mL	H37Rv	-	-	inactive

For reference, 4 entries again:

compound	changes	measure	dose	strain	method	conditions	result
CC(=O)c1c(OCc2ccccc2)cc2oc3cc(OCc4ccccc4)c(CCC(C)C)c(O)c3c(=O)c2c1CCC(C)C	-	MIC	-	H37Ra	resazurin	-	12.5 µg/mL
CC(=O)N=C1N(/C=C2\C(=O)Oc3ccccc3C2=O)C(=O)/C(=C/c2ccc(NC(C)=O)cc2)N1C	-	MIC bound	-	H37Rv	BACTEC	-	>12.5 µg/mL
O=c1cccc(NC(=S)Nc2ncc(C3CCC3)o2)[nH]1	-	MIC	-	H37Rv	agar	-	10.78 µM
S=C(Nc1ccc(Cl)cc1)Nc1ncc(C2CCC2)o1	-	MIC	-	MDR clinical isolate	agar	-	1.23 µM

Blank or dashed fields: not listed here. "inactive" is the filed call at that dose; no cut-off is given. ECn is the concentration giving n% inhibition of infection, replication or growth. Two numbers with a dash give a range or band. Neighbouring rows are from separate reports. Inhibition is in % at the dose shown (toxicity tests: loss of growth or viability). Fold resistance: result on the changed form divided by that on wild type.